Values joined by “and” are separate entries in the source; they are usually repeats but may differ in a detail not shown here. Equal entries are not always repeated.
System: L. amazonensis intracellular amastigotes
Assay: Anti-amastigote assay in infected murine peritoneal macrophages
Settings: peritoneal macrophages vs intracellular amastigotes

SMILES | SI (peritoneal macrophages/IC50 on amastigotes) | SI (peritoneal macrophages/IC50 on amastigotes) (listed as 107) | SI (peritoneal macrophages/IC50 on amastigotes) (listed as 113)
C[C@@H]1[C@H](O)[C@@H](C)/C=C/C=C/C=C/C=C/C=C/C=C/C=C/[C@H](O[C@@H]2O[C@H](C)[C@@H](O)[C@H](N)[C@@H]2O)C[C@@H]2O[C@](O)(C[C@@H](O)C[C@@H](O)[C@H](O)CC[C@@H](O)C[C@@H](O)CC(=O)O[C@H]1C)C[C@H](O)[C@H]2C(=O)O [ANFB, amphotericin B, reference compound] | 25.93 and 25.92 |  | 
COc1ccccc1[Se]c1c(-c2ccccc2)nc2cc(C)ccn12 [MRK-107] | 12.55 | 10.92 | 
Cc1ccn2c([Se]c3ccccc3)c(-c3ccccc3)nc2c1 [MRK-113] | 10.92 |  | 12.55
